Test results as given in the supplement of paper PMC3578754.

Legend:
Experiment in all cases: fold change of IC50 against reference virus; higher = more resistant
zidovudine = compound: Cc1cn([C@H]2C[C@H](N=[N+]=[N-])[C@@H](CO)O2)c(=O)[nH]c1=O [zidovudine]
Description: (§1)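 Cell-culture drug susceptibility tests of virus bearing the reverse transcriptase of each isolate, gathered from many studies.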

tenofovir = compound: C[C@H](Cn1cnc2c(N)ncnc21)OCP(=O)(O)O [tenofovir]
Description: as §1

stavudine = compound: Cc1cn([C@H]2C=C[C@@H](CO)O2)c(=O)[nH]c1=O [stavudine]
Description: as §1

didanosine = compound: O=c1[nH]cnc2c1ncn2[C@H]1CC[C@@H](CO)O1 [didanosine]
Description: as §1

abacavir = compound: Nc1nc(NC2CC2)c2ncn([C@H]3C=C[C@@H](CO)C3)c2n1 [abacavir]
Description: as §1

emtricitabine = compound: Nc1nc(=O)n([C@@H]2CS[C@H](CO)O2)cc1F [emtricitabine]
Description: as §1

nevirapine = compound: Cc1ccnc2c1NC(=O)c1cccnc1N2C1CC1 [nevirapine]
Description: as §1

delavirdine = compound: CC(C)Nc1cccnc1N1CCN(C(=O)c2cc3cc(NS(C)(=O)=O)ccc3[nH]2)CC1 [delavirdine]
Description: as §1

efavirenz = compound: O=C1Nc2ccc(Cl)cc2[C@@](C#CC2CC2)(C(F)(F)F)O1 [efavirenz]
Description: as §1

zalcitabine = compound: Nc1ccn([C@H]2CC[C@@H](CO)O2)c(=O)n1 [zalcitabine]
Description: as §1

Test System | fold change of IC50 against reference virus (zidovudine) | fold change of IC50 against reference virus (tenofovir) | fold change of IC50 against reference virus (stavudine) | fold change of IC50 against reference virus (didanosine) | fold change of IC50 against reference virus (abacavir) | fold change of IC50 against reference virus (emtricitabine) | fold change of IC50 against reference virus (nevirapine) | fold change of IC50 against reference virus (delavirdine) | fold change of IC50 against reference virus (efavirenz) | fold change of IC50 against reference virus (zalcitabine)
HIV-1 isolate 64 (reverse transcriptase changes: P4S E6D M41L R172K Y188L V189I Q197K I202V H208Y R211K T215Y V245E A272P E297A, study 15) | 3 | 0.8 | 1.4 | 0.9 | 1.4 | 1.8 | ≥ 400 | 0.3 | 11 | 1.4
HIV-1 isolate 585 (reverse transcriptase changes: V60I R83K K166R I178L G196E V245E A272P, study 15) | 0.9 | 0.9 | 0.9 | 0.9 | 0.9 | 0.8 | 1.8 | 2 | 1.2 | 0.9
HIV-1 isolate 601 (reverse transcriptase changes: K20R V35M T39A K49R I63K A98S E138A K166R E169D K173Q V179I Y181I M184V L210W R211K T215Y A272P, study 15) | 0.7 | 0.4 | 0.9 | 1.4 | 3.9 | ≥ 200 | ≥ 400 | 20 | 0.5 | 0.9
HIV-1 isolate 698 (reverse transcriptase changes: K64R D67N K70R I135T V179I M184V Q197K T200A Q207D R211K T215Y K219E V245K K277R I293V, study 15) | 16 | 1.2 | 1.4 | 1.2 | 6 | ≥ 200 | 0.5 | 0.6 | 0.4 | –
HIV-1 isolate 733 (reverse transcriptase changes: V35I K102R D121H K122E I135V S162C D177E I178L Y188H A272S I293V, study 15) | 2.5 | 1.1 | 0.8 | 0.6 | 0.7 | 0.9 | 3.6 | 12 | 7.3 | –
HIV-1 isolate 766 (reverse transcriptase changes: M41L V60I D67N T69N K70R K101H D123E I142V K166R D177E M184V G196E T200I I202V R211K T215F K219Q A272P K277R T286A I293V E297Q I329V, study 83) | 16 | 1.3 | 2.1 | 1.9 | 6.1 | ≥ 200 | 1.5 | 1.8 | 0.7 | –
HIV-1 isolate 787 (reverse transcriptase changes: V60I K103N K122E D123E I142V G196E A272P K281R T286A P294A E297K, study 15) | 0.9 | 0.9 | 1 | 0.8 | 0.9 | 0.8 | 25 | 37 | 12 | –
HIV-1 isolate 848 (reverse transcriptase changes: Y188L T215Y, study 15) | 5.7 | 1.4 | 1.6 | 1.2 | 2.1 | 2.7 | 300 | 2.1 | 20 | –
HIV-1 isolate 881 (reverse transcriptase changes: V35I R83K D123E I135T D177E V245K A272P Q278Y, study 15) | 0.9 | 0.9 | 0.9 | 1.1 | 0.7 | 1.1 | 0.8 | 1.1 | 0.7 | –
HIV-1 isolate 907 (reverse transcriptase changes: M41L M184V Y188L T215Y, study 15) | 6 | 1 | 0.9 | 1.2 | 5 | ≥ 200 | 300 | 2.6 | 66 | –
HIV-1 isolate 909 (reverse transcriptase changes: V35I K101Q K103N K122E I135K G196E V245E E248D A272P E297R, study 15) | 1.3 | 1 | 1 | 1.2 | 1.2 | 0.9 | 94 | 91 | 68 | –
HIV-1 isolate 1048 (reverse transcriptase changes: V35I D67N T69D K70R K103N K122E I135L D177G Y181C T200A H208Y R211K T215F D218E K219Q A272P L283I I293V E297R, study 65) | 9.1 | 0.9 | 1.6 | 0.9 | 1.3 | 4.3 | ≥ 400 | ≥ 250 | 29 | –
HIV-1 isolate 1063 (reverse transcriptase changes: K43Q K49R D67N K70R K103N D123E I135M M184V T200A R211K K219Q K223R A272P V276I K281R T286A, study 15) | 5.7 | 1.2 | 1.6 | 1.4 | 3.7 | ≥ 200 | 40 | 107 | 13 | –

Fold change is the IC50 on the isolate divided by the IC50 on a reference virus; 1 = unchanged, higher = more resistant. Changes are given against the subtype B consensus. No active / inactive call. The values were gathered from many studies (numbered anew) with different assays, which the source does not name. Most viruses are clinical isolates; some are laboratory strains or clones with known resistance changes. Isolates with mixed residues are left out; stretches that were not sequenced show no change. Round top values that many isolates share are read here as limits; other very high values and 0.1 may be limits too.
